Data as given in PubChem BioAssay AID1259414 (Drosophila RNAi Screening Center, 2018).
Aim: 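Host factors increasing or decreasing Wolbachia levels in cultured fly cells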 (primary screen). System: Drosophila JW18 cells infected with Wolbachia. Reagents: long dsRNA against Drosophila genes, 0.25 µg dsRNA per well of a 384-well plate. Timing: 5 days. Conditions: cells persistently infected with Wolbachia before knock-down; no added drug. Read-out: 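Automated imaging of bacterial rRNA staining divided by host cell count, reported as plate-normalised robust z-score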. Scale: Wolbachia per cell robust z: higher = more Wolbachia per host cell than the plate typical. Active means: 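Hit when robust z is 1.5 or more, or -1.5 or less, in at least two of three replicates; excludes dsRNAs with several or no targets, genes not expressed in JW18 and well A1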.
The deposit covers about 24,000 reagents; this is an unselected part of those with a known target gene and a result. Of all reagents, about 1,210 (5%) got an active call. 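Inactive calls also include excluded dsRNAs with several or no targets, genes unexpressed in JW18, and well A1, regardless of score.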 Reagents against one gene are numbered here. Names joined by + are all predicted targets of the reagent. No sequences are given here.

Gene | reagent no. | Wolbachia per cell robust z, rep 1 | Wolbachia per cell robust z, rep 2 | Wolbachia per cell robust z, rep 3 | call
CG16965 | 1 | 0.83 | -4.91 | 0.456 | inactive
CG14342 | 1 | -2 | 0.849 | -0.528 | inactive
CG14342 | 2 | 0.929 | 1.38 | 0.602 | inactive
CG8654 | 1 | 1.39 | 0.619 | 0.954 | inactive
sty | 1 | -0.858 | -2.28 | -0.867 | inactive
sty | 2 | 0.313 | -1.15 | -0.878 | inactive
CG4872 | 1 | -0.244 | -0.0974 | -1.38 | inactive
CG3700 + MED23 | 1 | -0.544 | -2.44 | -0.354 | inactive
CG3700 + MED23 | 2 | 0.797 | 0.781 | -0.136 | inactive
CG11000 | 1 | -1.35 | -3.7 | -1.57 | inactive
CG11000 | 2 | -0.967 | -0.626 | -0.195 | inactive
CG11000 | 3 | -1.74 | -1.29 | -0.0156 | inactive
VepD | 1 | 0.456 | -1.05 | -0.921 | inactive
VepD | 2 | -1.19 | -1.27 | -1.04 | inactive
Prp8 | 1 | 3.25 | 3.44 | 4.83 | active
Cyp6a16 | 1 | 0.0865 | 1.24 | 0.399 | inactive
vvl | 1 | -1.39 | -1.92 | -0.241 | inactive
vvl | 2 | 0.916 | 1.49 | 0.403 | inactive
vvl | 3 | 0.53 | -1.99 | -1.59 | inactive
ms(2)35Ci | 1 | 1.53 | 1.61 | 2.12 | inactive
Obp83g | 1 | -0.0711 | -0.38 | -0.15 | inactive
Obp83g | 2 | 1.13 | 0.307 | 0.178 | inactive
LpR2 | 1 | 0.0559 | -0.281 | 0.241 | inactive
LpR2 | 2 | -0.429 | 0.422 | 0.394 | inactive
LpR2 | 3 | 1.09 | -0.518 | -0.861 | inactive
LpR2 | 4 | 0.605 | 0.524 | 0.66 | inactive
RhoGEF2 | 1 | -0.374 | -3.5 | 0.541 | inactive
RhoGEF2 | 2 | 0.804 | 0.566 | 0.172 | inactive
UbcE2M | 1 | 2.65 | 1.12 | 1.93 | active
mthl13 | 1 | -0.82 | -1.45 | -0.777 | inactive
cm | 1 | 0.452 | 0.551 | 0.326 | inactive
EndoB | 1 | -0.638 | 0.703 | 0.677 | inactive
Cisd2 | 1 | -4.36 | 1.02 | 0.958 | inactive
Vajk3 | 1 | -0.372 | 0.712 | 0.166 | inactive
Vajk3 | 2 | -0.356 | -0.147 | 0.615 | inactive
GatA | 1 | 0.167 | -0.0136 | 1.06 | inactive
pain | 1 | 0.341 | -0.874 | 0.187 | inactive
pain | 2 | -1.01 | 0.309 | 0.771 | inactive
CG33225 | 1 | 0.716 | -2.74 | 1.96 | inactive
CG7627 | 1 | -1.93 | -0.662 | 0.402 | inactive
CG7627 | 2 | 0.151 | -0.252 | -0.353 | inactive
CG7627 | 3 | -0.34 | 0.878 | -0.0654 | inactive

A stretch taken from the entries so far, for reference:
Gene | reagent no. | Wolbachia per cell robust z, rep 1 | Wolbachia per cell robust z, rep 2 | Wolbachia per cell robust z, rep 3 | call
mthl13 | 1 | -0.82 | -1.45 | -0.777 | inactive
cm | 1 | 0.452 | 0.551 | 0.326 | inactive
EndoB | 1 | -0.638 | 0.703 | 0.677 | inactive

Further records follow.
Gene | reagent no. | Wolbachia per cell robust z, rep 1 | Wolbachia per cell robust z, rep 2 | Wolbachia per cell robust z, rep 3 | call
Set1 | 1 | 3.51 | 2.09 | 3.51 | active
CG3376 | 1 | 0.564 | 0.165 | 0.509 | inactive
CG3376 | 2 | 0.621 | 0.318 | -1.25 | inactive
uex | 1 | -0.585 | -0.479 | -0.325 | inactive
uex | 2 | 0.0934 | -2.21 | -0.921 | inactive
uex | 3 | -0.143 | 0.87 | 0.316 | inactive
CG33468 | 1 | 0.354 | 0.415 | -0.911 | inactive
CG33270 | 1 | 0.335 | -5.28 | 0.867 | inactive
CG14947 | 1 | 0.219 | 0.117 | 0.651 | inactive
Df31 | 1 | -0.104 | 0.765 | 0.039 | inactive
Df31 | 2 | -0.942 | 0.349 | -0.789 | inactive
CG33458 | 1 | -0.934 | -4.06 | 0.0991 | inactive
CG13449 | 1 | -0.527 | 1.35 | 0.889 | inactive
Pdrg1 | 1 | -2.15 | -0.587 | -3.21 | active
CG44251 + CG44250 | 1 | -1.81 | -0.478 | -0.498 | inactive
CG44251 + CG44250 | 2 | -0.576 | -0.0186 | 1.7 | inactive
tld | 1 | -3.65 | -0.675 | -0.382 | inactive
CG14618 | 1 | 0.312 | 0.199 | 0.133 | inactive
Nup58 | 1 | -0.279 | -0.272 | 0.481 | inactive
Nup58 | 2 | -0.152 | 0.677 | 0.33 | inactive
CG7140 | 1 | 0.729 | 0.58 | 0.947 | inactive
lncRNA:CR32835 | 1 | 0.535 | 0.0519 | 1.35 | inactive
lncRNA:CR32835 | 2 | -1.6 | -0.377 | -0.179 | inactive
IntS11 | 1 | -8.82 | 0.293 | 0.317 | inactive
IntS11 | 2 | -0.281 | -0.125 | -0.162 | inactive
alpha-Est4 | 1 | -1.98 | -0.183 | 0.92 | inactive
alpha-Est4 | 2 | -0.488 | -0.528 | 0.228 | inactive
